# Measurements reported in PubChem BioAssay AID1259311 (ICCB-Longwood Screening Facility, Harvard Medical School, 2017).
# Where “and” joins values, the source holds several entries; their conditions need not be identical. Identical values can stand only once. Only a part is listed here, and it is no random draw. Calls of active or inactive are those of the source. No stated cut-off is given here; in the data, active means inhibition above about 85%; inactive means the rest.
# Assay: growth inhibition of S. aureus RN4220, primary screen, OD600 (AID 1259311);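 further: plate controls were untreated cells for no effect and reference antibiotic for full effect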
# Details: OD600, 16 h, active compounds read high
row,SMILES,inhibition
1,O=[N+]([O-])c1cccc(NC2=NCC(CBr)S2)c1 (stereo unspecified),inactive: 3.44%
2,O=C(O)CNc1ccc([As](=O)(O)O)cc1,inactive: 1.82%
3,CC(C)(C)C(=O)NC(Sc1ccncn1)C(Cl)(Cl)Cl (stereo unspecified),inactive: 2%
4,O=[N+]([O-])c1ncn(CCn2ncnc2[N+](=O)[O-])n1,inactive: -1.84%
5,O=C(Nc1cc([As](=O)(O)O)ccc1O)c1ccccc1,inactive: 2.2%
6,CP(=O)(OC12CC3CC(CC(C3)C1)C2)OC12CC3CC(CC(C3)C1)C2,inactive: 15.7%
7,Nc1ccc2c(ccc3cccnc32)n1.O=[N+]([O-])c1cc([N+](=O)[O-])c(O)c([N+](=O)[O-])c1,inactive: 1.65%
8,O=P1(N(CCCl)CCCl)OCCCS1 (stereo unspecified),inactive: 1.99%
9,CN(C)C(=O)c1c([N+](=O)[O-])cc([N+](=O)[O-])cc1[N+](=O)[O-],inactive: 24.9%
10,CN(C(=O)Cc1ccc(Cl)c(Cl)c1)C1CCCCC1N1CCCC1 (stereo unspecified),inactive: 4.69% and inactive: 6.24% and inactive: 8.61%
11,CC1CCN(C(=O)Oc2c(Cl)cc(Cl)c3cccnc23)CC1,inactive: 9.06%
12,CC(C)(C)c1ccc(OP(C)(=O)O)cc1,inactive: 1.38%
13,Nc1ccc([As](=O)(O)c2ccc(N)cc2)cc1,inactive: 4.47%
14,COc1ccccc1OP(C)(=O)Nc1ccccc1Br (stereo unspecified),inactive: 6.5%
15,C[N+]1=C2C=CC=CC=C2SC12C([N+](=O)[O-])=CC([N+](=O)[O-])=C[C-]2[N+](=O)[O-] (stereo unspecified),inactive: 52.5%
16,CP(=O)(Nc1ccc(Cl)cc1)Oc1ccc(F)cc1 (stereo unspecified),inactive: 4.51%
17,COc1ccccc1OP(C)(=O)Nc1c(C)n(C)n(-c2ccccc2)c1=O (stereo unspecified),inactive: -0.505%
18,O=[N+]([O-])c1cccc2n[nH]nc12,inactive: -3.44%
19,CC(=O)N1C2C3N(C(C)=O)C1C1N(C(C)=O)C(C(N1C(C)=O)N3C(C)=O)N2C(C)=O,inactive: 5.2%
20,O=C(OCCCN1CCCC1)C(O)(c1ccccc1)C1CCCCC1 (stereo unspecified),inactive: 0.904%
21,CP(=O)(Oc1ccccc1)N1CCOC1=O (stereo unspecified),inactive: -0.286%
22,Cc1ccc(NP(=O)(Oc2ccccc2)Oc2ccccc2)nc1,inactive: 1.43%
23,CCc1nc2c(n1)c1c(non1O)c1c2no[n+]1[O-],inactive: -3.69%
24,O=[N+]([O-])c1cc([N+](=O)[O-])c(CCNc2ccccc2)c([N+](=O)[O-])c1,inactive: 17.3%
25,CCc1ccc(OP(C)(=O)Nc2cccnc2)cc1 (stereo unspecified),inactive: 6.29%
26,CCN(CC)CC(O)COC(=O)C(O)(c1ccccc1)C1CCCCC1 (stereo unspecified),inactive: -2.06%

row,SMILES,inhibition
1,COc1ccc(OP(C)(=O)Nc2ccc(Br)cc2)cc1 (stereo unspecified),inactive: 0.27%
2,COc1ccc(C2=NCC(CBr)S2)cc1 (stereo unspecified),inactive: 3.74%
3,CP(=O)(Nc1ccccn1)Oc1ccccc1 (stereo unspecified),inactive: -1.09%
4,COc1ccccc1OP(C)(=O)Nc1ccc(C)cc1C (stereo unspecified),inactive: 3.8%
5,CCc1ccc(OP(C)(=O)O)cc1,inactive: 25.9%
6,CC(C)CC(=O)NC(Sc1ccc(Cl)cc1)C(Cl)(Cl)Cl (stereo unspecified),inactive: 0.269%
7,O=[N+]([O-])c1cc([N+](=O)[O-])c(Nc2ccccn2)c([N+](=O)[O-])c1,active: 94.7%
8,Cc1c(NP(C)(=O)Oc2ccc(C(C)C)cc2)c(=O)n(-c2ccccc2)n1C (stereo unspecified),inactive: 3.23%
9,Nc1cc(N)c2nonc2c1[N+](=O)[O-],inactive: -1.07%
10,Oc1ccccc1CNc1ccccn1,inactive: 3.17%
11,O=C(NC(Sc1ccncn1)C(Cl)(Cl)Cl)c1ccccc1 (stereo unspecified),inactive: -5.48%
12,COc1ccc(OP(C)(=O)Nc2ccccn2)cc1 (stereo unspecified),inactive: -0.379%
13,COc1ccccc1OP(=O)(Nc1ccc(C)cn1)Oc1ccccc1OC,inactive: 4.83%
14,Cc1ccc(OP(=O)(Nc2nccs2)Oc2ccc(C)cc2)cc1,inactive: 3.84%
15,Clc1ccc(Cl)c(NC2=NCC(CBr)S2)c1 (stereo unspecified),inactive: 17.9%
16,CN(C)CCOC(=O)C(O)(c1ccccc1)C1CCCC1 (stereo unspecified),inactive: 7.32%
17,CN1CCCC(OC(=O)C(c2ccccc2)c2ccccc2)C1 (stereo unspecified),inactive: -0.61%
18,NC(=O)c1cc([N+](=O)[O-])cc([N+](=O)[O-])c1N,inactive: 12.3%
19,COc1ccccc1OP(C)(=O)Nc1ccc(Br)cc1 (stereo unspecified),inactive: 4.36%
20,CC(C)N1C(=O)CC2(CCN(CCOC(=O)C(O)(c3ccccc3)c3ccccc3)CC2)C1=O,inactive: 2.07%
21,CCN(N=Nc1nonc1N)c1nonc1N,inactive: 6.31%
22,CP(=O)(Nc1ccc(Cl)cc1Cl)Oc1ccccc1 (stereo unspecified),inactive: -3.45%
23,CCOP(=O)(Nc1ccccc1)OCC,inactive: 12.7%
24,Cc1cc(SC(NC(=O)c2ccc(F)cc2)C(Cl)(Cl)Cl)ncn1 (stereo unspecified),inactive: -5.49%
25,Cc1ccc(NP(=O)(Oc2ccccc2F)Oc2ccccc2F)nc1,inactive: 2.38%
26,COc1ccccc1OP(C)(=O)Nc1ccc(C)c(C)c1 (stereo unspecified),inactive: -13.7%

row,SMILES,inhibition
1,CC(C)=NN=C(N)N[N+](=O)[O-],inactive: -2.92%
2,O=C(O)c1ccccc1[As](=O)(O)O,inactive: 9.09%
3,CC(=O)Nc1ccc([As](=O)(O)O)cc1,inactive: -0.29%
4,CCCC1OP(N)(=O)OCC1CC (stereo unspecified),inactive: -0.33%
5,CCN(CC)CC(C)C(C)OC(=O)C(O)(c1ccccc1)c1ccccc1 (stereo unspecified),inactive: 8.3%
6,O=C1C(O)=C([N+](=O)[O-])C(=O)C(O)=C1[N+](=O)[O-],inactive: 0.881%
7,Cc1cc(C)cc(OP(C)(=O)Nc2cccc(C(F)(F)F)c2)c1 (stereo unspecified),inactive: 4.44%
8,O=P(Nc1nc2ccc(Cl)cc2s1)(c1ccccc1)c1ccccc1,inactive: 5.37%
9,CP(=O)(Nc1ccccc1)Oc1ccc(F)cc1 (stereo unspecified),inactive: 2.32%
10,Cc1ccccc1OP(=O)(Nc1ccccn1)Oc1ccccc1C,inactive: 9.14%
11,CC(NC(=O)COC(=O)C(O)(c1ccccc1)c1ccccc1)c1ccccc1 (stereo unspecified),inactive: 3.91%
12,CN(C)C(=O)Oc1noc2ccccc12,inactive: 4.16%
13,O=[N+]([O-])c1cc([N+](=O)[O-])c(OC2CCCCC2O)c([N+](=O)[O-])c1 (stereo unspecified),inactive: 2.43%
14,Cc1c([N+](=O)[O-])cc([N+](=O)[O-])c(Br)c1[N+](=O)[O-],inactive: 5.85%
15,COC(=O)c1cc2c(s1)N=C(c1ccccc1)N(C)P2(=O)N1CCOCC1 (stereo unspecified),inactive: 5.12%
16,Cc1ccc(OP(=O)(Nc2ccccn2)Oc2ccc(C)cc2)cc1,inactive: 6.03%
17,CC(=O)NC(SC(=S)N(CC(C)C)CC(C)C)C(Cl)(Cl)Cl (stereo unspecified),inactive: -2.89%
18,O=C(OC1CN2CCC1CC2)c1ccccc1 (stereo unspecified),inactive: 2.91%
19,CCN(CC)CCCOC(=O)C(O)(c1ccccc1)C1CCCCC1 (stereo unspecified),inactive: 2.52%
20,CC1OP(=O)(Oc2ccccc2)CC2OC12 (stereo unspecified),inactive: 0.933%
21,CCC(=O)N1C2C3N(C(=O)CC)C1C1N(C(=O)CC)C(C(N1C(=O)CC)N3C(=O)CC)N2C(=O)CC,inactive: 2.06%
22,O=P1(N(CCCl)CCCl)OCCC2CCCCN21 (stereo unspecified),inactive: 1.46%
23,CCOC(=O)c1ccc(NP(C)(=O)Oc2ccc(F)cc2)cc1 (stereo unspecified),inactive: 3.46%
24,COc1ccc(OP(C)(=O)Nc2ccc(SC(F)(F)F)cc2)cc1 (stereo unspecified),inactive: 4.11%
25,O=C(NC1CCS(=O)(=O)C1)NP(=S)(Oc1ccccc1)Oc1ccccc1 (stereo unspecified),inactive: 7.96%
26,c1ccc(-c2nn[nH]n2)c(-c2nn[nH]n2)c1,inactive: 7.87%

row,SMILES,inhibition
1,Cc1ccc(NP(=O)(Oc2cccc(C)c2)Oc2cccc(C)c2)nc1,inactive: 1.5%
2,CC(=O)Nc1ccc([As](=O)(O)O)c(O)c1,inactive: 5.16%
3,CC(=O)Nc1ccc(Oc2c([N+](=O)[O-])cc([N+](=O)[O-])cc2[N+](=O)[O-])cc1,inactive: 14.8%
4,NC(=NO)c1c(N)no[n+]1[O-],inactive: 0.979%
5,CC(=O)c1ccc(N2CC2c2ccncc2)cc1 (stereo unspecified),inactive: 1.17%
6,O=C(OC1CN2CCC1CC2)c1ccc([N+](=O)[O-])cc1 (stereo unspecified),inactive: 4.15%
7,Cc1ccccc1CN(C)C(=O)COC(=O)C(O)(c1ccccc1)c1ccccc1,inactive: 8.86%
8,O=C(OCCN1CCN(CCOCc2ccccc2)CC1)C(O)(c1ccccc1)c1ccccc1,inactive: 6.2%
9,CCc1cc(O)c([N+](=O)[O-])c(C)c1[N+](=O)[O-],inactive: 39.2%
10,CP(=O)(Nc1ccccc1F)Oc1ccccc1 (stereo unspecified),inactive: 2.7%
11,CC(C)(C)C(=O)NC(Sc1ccccc1)C(Cl)(Cl)Cl (stereo unspecified),inactive: 5.06%
12,CN(C(=O)Cc1ccccc1)C1CC[C@]2(CCCO2)CC1N1CCCC1 (stereo partly specified),inactive: 3.04%
13,O=P1(Nc2nc3ccc(Cl)cc3s2)COc2ccccc2O1 (stereo unspecified),inactive: 4.54%
14,CCOc1ccc(C2=NCC(CBr)S2)cc1 (stereo unspecified),inactive: 1.79%
15,Cc1ccccc1NP(C)(=O)Nc1ccccc1C,inactive: 0.0985%
16,CP(=O)(Nc1ccc2c(c1)OCCO2)Oc1ccccc1 (stereo unspecified),inactive: -4.88%
17,CCOP(C)(=S)SCC(=O)NC(C)(CC)C(=O)O (stereo unspecified),inactive: 3.47%
18,c1nnnn1CCn1cnnn1,inactive: 3.84%
19,CP(=O)(Nc1ccc(SC(F)(F)F)cc1)Oc1ccc(F)cc1 (stereo unspecified),inactive: 3%
20,CC(C)C(=O)NC(Sc1ccccc1)C(Cl)(Cl)Cl (stereo unspecified),inactive: 7.25%
21,O=P(Nc1nccs1)(c1ccccc1)c1ccccc1,inactive: 1.01%
22,CCNC(=S)N=C(N)N[N+](=O)[O-],inactive: 2.79%
23,Cc1c(C(c2ccc3c(c2)OCO3)c2c(C)n(C)n(-c3ccccc3)c2=O)c(=O)n(-c2ccccc2)n1C.O=[N+]([O-])c1cc([N+](=O)[O-])c(O)c([N+](=O)[O-])c1,inactive: -4.43%
